## Sequence variants of PSTVd stem 15 after infection

The pool varies stem 15 of the PSTVd intermediate strain in the pattern CUGGAGCGAUNGNNUNNG; wild type is CUGGAGCGAUCGCUUCGG (upper and lower strand joined, each 5' to 3', the first 9 letters being the upper strand).

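A pool of all variants was put on leaves of three Nicotiana benthamiana plants. Samples came from the inoculated region at 5 days, the leaf margin at 10 and upper systemic leaves at 12.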

Numbers give reads per thousand; 0 = not seen among the reads, higher = more abundant. Each site shows the three plants. "Pool" is the share in the plasmid pool used as inoculum, on the same scale. The inoculated region was read from the minus strand, the other sites from the plus strand. IR is the inoculated region, LM the leaf margin, Sys the systemic leaves. The authors trace changes outside the varied positions to PCR and sequencing errors or to mutation in the plant; presence does not show that a variant is infectious alone. Wild type was 10.2 per thousand in the pool and the most common sequence in every sample (inoculated region 285, 367, 312; leaf margin 785, 865, 782; systemic leaves 854, 898, 915). With 36,693-63,082 reads a sample, very low values are single reads.

| sequence | pool | IR | LM | Sys |
|---|---|---|---|---|
| CUGGAGCGAUAGCUUGCG | 0.663 | 0.176 0.293 0.354 | 0.0620 0.0273 0.0317 | 0 0 0 |
| CUGGAGCGAUAGCUUGGG | 0.727 | 0.313 0.314 0.316 | 0.103 0.0273 0.0317 | 0 0 0 |
| CUGGAGCGAUAGCUUGUG | 1.00 | 0.352 0.209 0.335 | 0.0620 0 0.0476 | 0 0 0 |
| CUGGAGCGAUAGCUUUAG | 0.840 | 0.196 0.377 0.261 | 0.0827 0 0.0317 | 0 0 0 |
| CUGGAGCGAUAGCUUUCG | 0.776 | 0.176 0.209 0.279 | 0.0827 0 0 | 0 0 0 |
| CUGGAGCGAUAGCUUUGG | 0.679 | 0.294 0.251 0.298 | 0.0414 0.0818 0.0317 | 0 0 0 |
| CUGGAGCGAUAGCUUUUG | 0.808 | 0.254 0.251 0.335 | 0.145 0.0545 0 | 0 0 0 |
| CUGGAGCGAUAGGAUAAG | 0.808 | 0.254 0.356 0.316 | 0.0620 0 0.0317 | 0 0 0 |
| CUGGAGCGAUAGGAUACG | 0.743 | 0.333 0.168 0.428 | 0.0207 0.0545 0 | 0 0 0 |
| CUGGAGCGAUAGGAUAGG | 0.695 | 0.254 0.335 0.261 | 0.103 0.0273 0.0476 | 0 0 0 |
| CUGGAGCGAUAGGAUAUG | 0.986 | 0.294 0.293 0.503 | 0.0827 0.0545 0.0159 | 0 0 0 |
| CUGGAGCGAUAGGAUCAG | 0.711 | 0.235 0.293 0.372 | 0.0414 0.0273 0.0634 | 0 0 0 |
| CUGGAGCGAUAGGAUCCG | 0.857 | 0.274 0.272 0.335 | 0.103 0.0273 0.0159 | 0 0 0 |
| CUGGAGCGAUAGGAUCGG | 0.663 | 0.215 0.440 0.298 | 0.0414 0.0545 0.0159 | 0 0 0 |
| CUGGAGCGAUAGGAUCUG | 0.776 | 0.294 0.209 0.298 | 0 0.0545 0.0159 | 0 0 0 |
| CUGGAGCGAUAGGAUGAG | 0.970 | 0.294 0.356 0.279 | 0.0620 0.0545 0.0317 | 0 0 0 |
| CUGGAGCGAUAGGAUGCG | 0.711 | 0.567 0.188 0.372 | 0.0414 0 0.0159 | 0 0 0 |
| CUGGAGCGAUAGGAUGGG | 1.03 | 0.235 0.356 0.316 | 0.103 0.0273 0 | 0 0 0 |
| CUGGAGCGAUAGGAUGUG | 0.663 | 0.254 0.314 0.316 | 0.124 0.136 0.0634 | 0 0 0 |
| CUGGAGCGAUAGGAUUAG | 0.792 | 0.176 0.147 0.223 | 0.0207 0.0545 0.0159 | 0 0 0 |
| CUGGAGCGAUAGGAUUCG | 0.840 | 0.254 0.293 0.223 | 0.0827 0.0818 0.0476 | 0 0 0 |
| CUGGAGCGAUAGGAUUGG | 0.889 | 0.196 0.251 0.428 | 0.0414 0.0273 0.0159 | 0 0 0 |
| CUGGAGCGAUAGGAUUUG | 0.857 | 0.176 0.335 0.428 | 0.0414 0 0.0317 | 0 0 0 |
| CUGGAGCGAUAGGCUAAG | 0.663 | 0.157 0.272 0.354 | 0.0414 0.0545 0 | 0 0 0 |
| CUGGAGCGAUAGGCUACG | 1.10 | 0.411 0.251 0.428 | 0.103 0 0.0317 | 0 0 0 |
| CUGGAGCGAUAGGCUAGG | 1.81 | 0.724 1.09 0.986 | 0.103 0.0545 0.0476 | 0 0.0222 0.0199 |
| CUGGAGCGAUAGGCUAUG | 0.792 | 0.235 0.209 0.316 | 0.0827 0.0545 0.0317 | 0 0 0 |
| CUGGAGCGAUAGGCUCAG | 0.824 | 0.254 0.147 0.335 | 0.0414 0 0 | 0 0 0 |
| CUGGAGCGAUAGGCUCCG | 1.03 | 0.313 0.293 0.261 | 0.0827 0.0818 0.0317 | 0 0 0 |
| CUGGAGCGAUAGGCUCGG | 0.614 | 0.254 0.251 0.149 | 0.0207 0.0273 0.634 | 0 0 0 |
| CUGGAGCGAUAGGCUCUG | 0.921 | 0.274 0.251 0.261 | 0.124 0.0818 0.0793 | 0 0 0 |
| CUGGAGCGAUAGGCUGAG | 0.760 | 0.294 0.356 0.261 | 0.0620 0.0273 0.0317 | 0 0 0 |
| CUGGAGCGAUAGGCUGCG | 1.08 | 0.333 0.419 0.391 | 0.0414 0.0545 0.0159 | 0 0 0 |
| CUGGAGCGAUAGGCUGGG | 1.02 | 0.333 0.461 0.409 | 0.103 0 0.0159 | 0 0 0 |
| CUGGAGCGAUAGGCUGUG | 0.970 | 0.137 0.272 0.372 | 0.0414 0 0.0317 | 0 0 0 |
| CUGGAGCGAUAGGCUUAG | 0.743 | 1.88 0.942 1.49 | 0 0 0.0317 | 0 0 0 |
| CUGGAGCGAUAGGCUUCG | 0.630 | 0.254 0.126 0.316 | 0.103 0.0545 0.0159 | 0 0 0 |
| CUGGAGCGAUAGGCUUGG | 0.743 | 0.313 0.335 0.261 | 0.0620 0.0273 0.0476 | 0 0 0 |
| CUGGAGCGAUAGGCUUUG | 1.70 | 0.978 1.68 0.856 | 0.0414 0 0.0317 | 0 0 0.0199 |
| CUGGAGCGAUAGGGUAAG | 1.00 | 0.372 0.0838 0.242 | 0.0827 0.0273 0.0476 | 0 0 0 |

The last 2 entries again:

{"sequence": "CUGGAGCGAUAGGCUUUG", "pool": "1.70", "IR": "0.978 1.68 0.856", "LM": "0.0414 0 0.0317", "Sys": "0 0 0.0199"}
{"sequence": "CUGGAGCGAUAGGGUAAG", "pool": "1.00", "IR": "0.372 0.0838 0.242", "LM": "0.0827 0.0273 0.0476", "Sys": "0 0 0"}

Data from the supplement of Wu et al. 2024, doi:10.1371/journal.ppat.1012142.